Values joined by “and” are separate entries in the source; they are usually repeats but may differ in a detail not shown here. Equal entries are not always repeated. Where two headings read alike, the source gives them in different places. Non-standard residues stand in square brackets, D forms with d. Residues, ends and D or L forms follow the SMILES beside them. Phe(4-NH2) = Nc1ccc(C[C@H](N)C(=O)O)cc1; 1Nal = N[C@@H](Cc1cccc2ccccc12)C(=O)O; Sta = CC(C)C[C@H](N)[C@@H](O)CC(=O)O

Results on 4 molecules are retold here after patent US6001810A, “Methods for treating retroviral infection” (Eli Lilly and Company, priority 1990, dated 1999).

The test system of data set [1] is HTLV-IIIB strain of HIV-1. Format: cell-based. The settings on record: MT-2 cells. As for the experimental part:
(§1) Quantitative evaluation of the viral inhibition were performed on the T-cell lymphoblastoid cell lines MT-2 (Harada et al., 1985, Science 229:563-566) and CEM (Nara and Fischinger, 1988, Nature 332:469-470). The cells were infected with the HTLV-IIIB strain of HIV-1 from the supernatant fluid of infected human T-lymphocyte cell line H9 (Popovic, M. et al., 1984, Science 224:497-500). Each of these three cell lines are publicly available from the National Institutes of Health (NIH) AIDS Research and Reference Reagent Program. The H9/HTLC-IIIB cell line is available under catalogue number 231, while CEM cell line is available under catalogue number 117 and the MT-2 cell line is available under the catalogue number 237. MT-2 and CEM cells were grown in RPMI 1640 medium supplemented with 10% (v/v) fetal calf serum, 100 U/ml penicillin, 100 μg/ml streptomycin and 25 mM HEPEs buffer. H9 cells were grown in the same medium except 20% fetal calf serum was used. The peptides were diluted in the medium used for MT-2 and CEM cells. Cell cultures were maintained in disposable tissue culture labware at 37° C. in a humidified atmosphere of 5% CO2 in air.
(§2) The inhibitors were dissolved in DMSO at 40 mg/ml or sterile water at 2 mg/ml, then dilutions were made in medium. The dilutions were added to micro-titer plates in 100 μl/well aliquots so that the high drug concentration for each screen was 100 μg/ml after the addition of cells to the well.
(§3) Susceptible MT-2 and CEM cells were grown and the cell population determined by a trypan blue viable cell count. […]
Reagents for colorimetric evaluation of cell viability were prepared by mixing the tetrazolium reagent, XTT, and phenazine methosulfate (PMS) to final concentrations of 200 μg/ml and 0.02 mM, respectively. […] The plates were read with the sealers in place in a Vmax Plate Reader® at 450 nm and 650 nm. The cytopathic effect (CPE) and percentage of cell viability were then calculated.

The subject of data set [2] is HTLV-IIIB strain of HIV-1. The data set is classed as cell-based. The following applies: CEM cells. As for the experimental part: as §1, §2, §3
Reagents for colorimetric evaluation of cell viability were prepared by mixing the tetrazolium reagent, XTT, and phenazine methosulfate (PMS) to final concentrations of 200 μg/ml and 0.02 mM, respectively. […] The plates were read with the sealers in place in a Vmax Plate Reader® at 450 nm and 650 nm. The cytopathic effect (CPE) and percentage of cell viability were then calculated. […]

Consider `Nc1ccn([C@H]2CC[C@@H](CO)O2)c(=O)n1` [DDC, 2', 3Dideoxycytidine], for which, in data set [1], the “TI (Therapeutic index, MTC50 divided by ID50)” value was > 93 and 101.

For `CC(=O)N[C@@H](Cc1cccc2ccccc12)C(=O)N1CCC[C@H]1C(=O)N[C@@H](Cc1ccccc1)C(=O)N[C@H](C(=O)N[C@@H](CC(C)C)[C@@H](O)CC(=O)N[C@@H](CC(C)C)C(=O)N[C@@H](Cc1ccccc1)C(N)=O)C(C)C` [P-7, Ac NA Pro Phe Val Statine Leu Phe NH2] (Ac-[1Nal]PFV[Sta]LF-NH2), the “TI (Therapeutic index, MTC50 divided by ID50)” value in data set [2] worked out at 57; in data set [1] it was 38.

On to `COc1ccc(C[C@H](NC(C)=O)C(=O)N2CCC[C@H]2C(=O)N[C@@H](Cc2ccccc2)C(=O)N[C@H](C(=O)N[C@@H](CC(C)C)[C@@H](O)CC(=O)N[C@@H](CC(C)C)C(=O)N[C@@H](Cc2ccccc2)C(N)=O)C(C)C)cc1` [P-9, Ac YOM Pro Phe Val Statine Leu Phe NH2] (Ac-Y(Me)PFV[Sta]LF-NH2), for which the “TI (Therapeutic index, MTC50 divided by ID50)” value in data set [2] was > 137 and 101; in data set [1] it was 109 and 96.

Take `CC(C)C[C@H](NC(=O)C[C@H](O)[C@H](CC(C)C)NC(=O)[C@@H](NC(=O)[C@H](Cc1ccccc1)NC(=O)[C@@H]1CCCN1C(=O)[C@@H](N)Cc1c[nH]cn1)C(C)C)C(=O)N[C@@H](Cc1ccccc1)C(=O)N[C@@H](Cc1ccc(N)cc1)C(N)=O` [P-15, H-His Pro Phe Val Statine Leu Phe paF NH2] (H-HPFV[Sta]LF[Phe(4-NH2)]-NH2): the “TI (Therapeutic index, MTC50 divided by ID50)” value in data set [2] is on record as over 1.3.
